Taken from: PubChem BioAssay AID624099 (ICCB-Longwood, 2012)
This is a random part of about 21,000 reagents tested. Of all reagents, 497 (2.4%) were called active. 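Higher z means weaker E2 silencing; only reporter increases were scored, and knock-downs that hurt cell survival may mask genuine repressor factors.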 A number with no mark means an inactive call.

- Test: 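Human genes that papillomavirus E2 requires to repress the HPV18 LCR promoter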 (primary screen)
- Cells: human C33A cervical carcinoma cells (HPV-negative) stably expressing BPV1 E2 and an HPV18 LCR luciferase reporter
- Knock-down reagent: siRNA pool against human genes, 40 nM
- Timing: 72 h
- Measurement: 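Per-well luciferase luminescence, z-scored on each plate against the plate mean and SD with control wells left out, then averaged across three replicate plates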
- Scale: mean z-score and z-score: higher = stronger reporter signal, weaker E2 silencing
- Active means: 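Mean z ≥ 2 together with z ≥ 2 in two or more of the three replicates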

gene symbol | mean z-score | z-score, replicate A | z-score, replicate B | z-score, replicate C
KCNAB1 (GeneID 7881) | 0.49 | 0.76 | 0.44 | 0.27
TMEM160 (GeneID 54958) | 1.58 | 1.05 | 1.54 | 2.17
ADGRG2 (GeneID 10149) | -0.11 | -0.36 | 0.02 | 0.01
ZC4H2 (GeneID 55906) | -0.59 | -0.74 | -0.69 | -0.36
PGGHG (GeneID 80162) | -0.94 | -0.84 | -1.07 | -0.92
LOC388624 (retired record) (GeneID 388624) | -0.97 | -0.17 | -1.38 | -1.36
SRMS (GeneID 6725) | 0.86 | 0.72 | 1 | 0.85
KIF19 (GeneID 124602) | -2.5 | -2.41 | -2.6 | -2.51
RNF167 (GeneID 26001) | 0.06 | 0.3 | -0.06 | -0.07
PPOX (GeneID 5498) | -0.16 | 0.28 | 0.13 | -0.88
SNAPC3 (GeneID 6619) | 0.43 | 0.42 | -0.13 | 1
MEF2C (GeneID 4208) | 1.44 | 1.61 | 1.12 | 1.58
KANSL1L (GeneID 151050) | 0.63 | 0.82 | 0.55 | 0.53
DYNLRB2 (GeneID 83657) | 0.79 | 0.91 | 0.67 | 0.78
TOMM40L (GeneID 84134) | 1.72 | 1.73 | 1.52 | 1.91

Not a retest: an excerpt of the list.
gene symbol | mean z-score | z-score, replicate A | z-score, replicate B | z-score, replicate C
ADGRG2 (GeneID 10149) | -0.11 | -0.36 | 0.02 | 0.01
ZC4H2 (GeneID 55906) | -0.59 | -0.74 | -0.69 | -0.36
PGGHG (GeneID 80162) | -0.94 | -0.84 | -1.07 | -0.92
LOC388624 (retired record) (GeneID 388624) | -0.97 | -0.17 | -1.38 | -1.36

Additional entries follow:
gene symbol | mean z-score | z-score, replicate A | z-score, replicate B | z-score, replicate C
SPACA9 (GeneID 11092) | 0.29 | 0.61 | 0.12 | 0.13
MCC (GeneID 4163) | -0.21 | -0.04 | -0.23 | -0.35
SLC20A2 (GeneID 6575) | -0.61 | -0.45 | -0.54 | -0.84
CAPN6 (GeneID 827) | -0.27 | 0 | -0.41 | -0.4
ENPP1 (GeneID 5167) | 0.05 | -0.02 | 0.05 | 0.12
ZNF516-DT (GeneID 400658) | -2.03 | -2.01 | -2.25 | -1.84
PNPLA3 (GeneID 80339) | -0.94 | -1.5 | -0.56 | -0.77
NAA50 (GeneID 80218) | 0.08 | 0.08 | -0.1 | 0.26
